Data taken from US20050118678A1, “Modified polypeptides with therapeutic activity and methods of use” (priority 2003, published 2005).
Residues, ends and D or L forms follow the SMILES beside them. *: point of attachment. Stearoyl = CCCCCCCCCCCCCCCCCC(=O)*; Lauroyl = CCCCCCCCCCCC(=O)*

Assay: Tryptophan fluorescence spectroscopy in water and membrane mimics
Type: physicochemical
Conditions: for Tryptophan fluorescence emission maximum, DPC: DPC micelles 1:500, 25° C.; for Tryptophan fluorescence emission maximum, DPC / Tryptophan fluorescence emission maximum, SDS: n = 1; for Tryptophan fluorescence emission maximum, DPPC: DPPC liposomes; for Tryptophan fluorescence emission maximum, DPPC / Tryptophan fluorescence emission maximum, DPPE/DPPG: peptide-lipid 1:20, 25° C.; for Tryptophan fluorescence emission maximum, DPPC / Tryptophan fluorescence emission maximum, DPPE/DPPG / Tryptophan fluorescence emission maximum, Water: 5 μM, n = 3; for Tryptophan fluorescence emission maximum, DPPE/DPPG: DPPE/DPPG liposomes; for Tryptophan fluorescence emission maximum, SDS: SDS micelles 1:1000, 25° C.; for Tryptophan fluorescence emission maximum, Water: excitation 280 nm, 25° C.

SMILES	Tryptophan fluorescence emission maximum, DPC [nm]	Tryptophan fluorescence emission maximum, DPPC [nm]	Tryptophan fluorescence emission maximum, DPPE/DPPG [nm]	Tryptophan fluorescence emission maximum, SDS [nm]	Tryptophan fluorescence emission maximum, Water [nm]
CCCCCCCCCCCC(=O)N[C@@H](CCCCN)C(=O)N[C@@H](CC(C)C)C(=O)N[C@@H](Cc1ccccc1)C(=O)N[C@@H](CCCCN)C(=O)N[C@@H](CCCNC(=N)N)C(=O)N[C@@H](Cc1c[nH]cn1)C(=O)N[C@@H](CC(C)C)C(=O)N[C@@H](CCCCN)C(=O)N[C@@H](Cc1c[nH]c2ccccc12)C(=O)N[C@@H](CCCCN)C(=O)N[C@H](C(=O)N[C@H](C(N)=O)[C@@H](C)CC)[C@@H](C)CC [C12-SC4] (Lauroyl-KLFKRHLKWKII-NH2)	344	348.7 ± 2.1	338.0 ± 0.0	341	353.0 ± 1.0
CCCCCCCCCCCCCCCCCC(=O)N[C@@H](CCCCN)C(=O)N[C@@H](CC(C)C)C(=O)N[C@@H](Cc1ccccc1)C(=O)N[C@@H](CCCCN)C(=O)N[C@@H](CCCNC(=N)N)C(=O)N[C@@H](Cc1c[nH]cn1)C(=O)N[C@@H](CC(C)C)C(=O)N[C@@H](CCCCN)C(=O)N[C@@H](Cc1c[nH]c2ccccc12)C(=O)N[C@@H](CCCCN)C(=O)N[C@H](C(=O)N[C@H](C(N)=O)[C@@H](C)CC)[C@@H](C)CC [C18-SC4] (Stearoyl-KLFKRHLKWKII-NH2)	344	349.0 ± 1.7	339.7 ± 3.2	342	353.3 ± 1.2
